Source: patent US7642277B2, “Non-nucleoside reverse transcriptase inhibitors” (Boehringer Ingelheim International GmbH, priority 2002, dated 2010)

Tests used:
[1] = biological target: HIV-1 RT enzyme (wild type) (Human immunodeficiency virus type 1 group M subtype B, UniProt P04585); assay: Reverse transcriptase (RT) enzymatic assay (IC50), PicoGreen fluorescence, wild type; type: biochemical; settings: read-out: IC50 WT
[2] = tested on: HIV-1 resistant mutant K103N/Y181C in C8166 LTRluc cells; assay: C8166 HIV-1 luciferase assay (EC50), resistant mutant; type: cell-based; settings: read-out: EC50 K103N/Y181C, C8166 HIV-1 luciferase assay (no *)

Row | Compound | IC50 [1] [nM] | EC50 [2] [nM]
1 | Cc1ccc(-c2ccccc2CCC(=O)Nc2ccccc2Cl)c(Cl)c1 | > 100 | 
2 | F/C(=C\c1ccccc1Cl)CSc1nnnn1-c1cccc2ccccc12 | > 100 | 
3 | CC(C)(C)c1ccc(-n2nnnc2SCC(=O)Nc2ccccc2Cl)c(Cl)c1 |  | > 100
4 | F/C(=C/c1ccccc1Cl)CSc1nnnn1-c1cccc2ccccc12 | > 100 | 
